Measured data: PubChem BioAssay AID624099 (ICCB-Longwood, 2012)
In all, the deposit lists about 21,000 reagents; below is an unselected part. 497 of all reagents (2.4%) were called active. 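Higher z means weaker E2 silencing; only reporter increases were scored, and knock-downs that hurt cell survival may mask genuine repressor factors.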 A number with no mark means an inactive call. Reagents against one gene are numbered here.

Screen: 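Host factors E2 relies on to silence an HPV18 LCR reporter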 (primary screen)
Cell system: human C33A cervical carcinoma cells (HPV-negative) stably expressing BPV1 E2 and an HPV18 LCR luciferase reporter
Reagent: siRNA pool against human genes, 40 nM
Time to read-out: 72 h
Measurement: 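Per-well luciferase luminescence, z-scored on each plate against the plate mean and SD with control wells left out, then averaged across three replicate plates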
Direction: mean z-score and z-score: higher = stronger reporter signal, weaker E2 silencing
Rule for the call: 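Hit if mean z-score reaches 2 and two or more of three replicate z-scores also reach 2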

| gene symbol | reagent no. | mean z-score | z-score, replicate A | z-score, replicate B | z-score, replicate C |
| --- | --- | --- | --- | --- | --- |
| PKDREJ (polycystin family receptor for egg jelly) | 1 | 0.47 | 0.58 | 0.29 | 0.56 |
| LECT2 (leukocyte cell derived chemotaxin 2) | 1 | -0.18 | 0.03 | -0.06 | -0.53 |
| METTL25B (methyltransferase like 25B) | 1 | -0.06 | -0.34 | 0.11 | 0.06 |
| WDR46 (WD repeat domain 46) | 1 | -0.53 | -0.57 | -0.72 | -0.3 |
| LINC00301 (long independently transcribed non-coding RNA 301) | 1 | -0.28 | -0.25 | -0.11 | -0.47 |
| LINC02901 (long independently transcribed non-coding RNA 2901) | 1 | -0.46 | -0.48 | -0.65 | -0.26 |
| ACBD5 (acyl-CoA binding domain containing 5) | 1 | -0.23 | -0.35 | -0.15 | -0.19 |
| PTCHD3P1 (patched domain containing 3 pseudogene 1) | 1 | -1.43 | -1.67 | -1.48 | -1.15 |
| WNK1 (WNK lysine deficient protein kinase 1) | 1 | -0.65 | -0.71 | -0.61 | -0.63 |
| WNK1 (WNK lysine deficient protein kinase 1) | 2 | -1.11 | -1.31 | -1.02 | -0.99 |
| CD247 (CD247 molecule) | 1 | -0.06 | 0.09 | 0 | -0.28 |
| NEK7 (NIMA related kinase 7) | 1 | 0.36 | 0.13 | 0.36 | 0.61 |
| POLR2J4 (RNA polymerase II subunit J4 (pseudogene)) | 1 | -1.19 | -1.1 | -1.32 | -1.15 |
| POLR2J4 (RNA polymerase II subunit J4 (pseudogene)) | 2 | -1.15 | -0.95 | -1.29 | -1.21 |
| VPS26B (VPS26 retromer complex component B) | 1 | 0.45 | 0.43 | 0.56 | 0.36 |
| TRIM44 (TRIM family member 44) | 1 | 0.7 | 0.14 | 0.76 | 1.2 |
| SOCS7 (suppressor of cytokine signaling 7) | 1 | -1.07 | -1.07 | -1.16 | -0.98 |
| TAF4B (TATA-box binding protein associated factor 4b) | 1 | 0.05 | -0.19 | 0.08 | 0.25 |
| RPS27 (ribosomal protein S27) | 1 | -2.15 | -2.24 | -2.03 | -2.2 |
| MRPL11 (mitochondrial ribosomal protein L11) | 1 | -0.73 | -0.85 | -0.68 | -0.67 |
| VWA7 (von Willebrand factor A domain containing 7) | 1 | 1.4 | 1.54 | 1.38 | 1.29 |
| LOC200731 (retired record) | 1 | 0.03 | 0.16 | -0.42 | 0.35 |
| CCDC39 (coiled-coil domain 39 molecular ruler complex subunit) | 1 | -0.1 | -0.06 | -0.17 | -0.07 |
| RPS9 (ribosomal protein S9) | 1 | -1.59 | -2.05 | -1.48 | -1.24 |
| CYB561A3 (cytochrome b561 family member A3) | 1 | 0.02 | 0.36 | -0.29 | 0 |
| NEURL1B (neuralized E3 ubiquitin protein ligase 1B) | 1 | 0.05 | -0.44 | 0.19 | 0.41 |
| KCNA3 (potassium voltage-gated channel subfamily A member 3) | 1 | 0.9 | 0.85 | 0.83 | 1.02 |
| RNASET2 (ribonuclease T2) | 1 | -0.62 | -0.69 | -0.65 | -0.51 |
| DONSON (DNA replication fork stabilization factor DONSON) | 1 | -1.89 | -1.5 | -2.21 | -1.96 |
| MORN3 (MORN repeat containing 3) | 1 | 0.29 | 0.24 | 0.72 | -0.09 |
| FAM114A1 (family with sequence similarity 114 member A1) | 1 | 0.26 | 0.14 | 0.51 | 0.14 |
| AKR1B10 (aldo-keto reductase family 1 member B10) | 1 | -0.95 | -1.05 | -0.54 | -1.26 |
| EGR1 (early growth response 1) | 1 | -0.76 | -0.63 | -1.03 | -0.61 |
| DOLPP1 (dolichyldiphosphatase 1) | 1 | -0.83 | -0.98 | -0.76 | -0.76 |
| SRP14P1 (SRP14 pseudogene 1) | 1 | -0.47 | -0.36 | -0.69 | -0.37 |
| RBBP6 (RB binding protein 6, ubiquitin ligase) | 1 | -0.46 | -0.32 | -0.68 | -0.39 |
| RPL38 (ribosomal protein L38) | 1 | -2.2 | -2.16 | -2.25 | -2.2 |
| CD300LD-AS1 (CD300LD antisense RNA 1) | 1 | 0.82 | 1.01 | 0.74 | 0.69 |
| WAPL (WAPL cohesin release factor) | 1 | -0.21 | -0.21 | -0.25 | -0.17 |
| PMS2 (PMS1 homolog 2, mismatch repair system component) | 1 | 0.7 | 0.71 | 0.97 | 0.42 |
| CRIM1 (cysteine rich transmembrane BMP regulator 1) | 1 | 0.54 | 0.45 | 0.43 | 0.74 |
| TSSK3 (testis specific serine kinase 3) | 1 | 0.16 | 0.2 | 0.18 | 0.1 |
| SERTM2 (serine rich and transmembrane domain containing 2) | 1 | 1.98 | 1.74 | 2 | 2.2 |
| APOC3 (apolipoprotein C3) | 1 | 0.84 | 0.66 | 0.78 | 1.08 |
| PHF12 (PHD finger protein 12) | 1 | 0.81 | 1.07 | 0.61 | 0.77 |
| LIAS (lipoic acid synthetase) | 1 | -1.54 | -1.57 | -1.47 | -1.58 |
| ACO1 (aconitase 1) | 1 | 1.35 | 1.28 | 1.46 | 1.31 |
| SERPINB4 (serpin family B member 4) | 1 | -0.45 | -0.56 | -0.57 | -0.21 |
| TRIM7 (tripartite motif containing 7) | 1 | -0.24 | -0.39 | -0.3 | -0.04 |
| EMC8 (ER membrane protein complex subunit 8) | 1 | -1.42 | -1.37 | -1.56 | -1.32 |
| OR6K2 (olfactory receptor family 6 subfamily K member 2) | 1 | -0.1 | -0.53 | 0.34 | -0.1 |
| BRD4 (bromodomain containing 4) | 1 | 8.91 (active) | 9.5 | 8.82 | 8.4 |
| FBXL21P (F-box and leucine rich repeat protein 21, pseudogene) | 1 | 1.06 | 1.15 | 1.1 | 0.94 |
| LINC01565 (long independently transcribed non-coding RNA 1565) | 1 | -0.75 | -1.04 | -0.61 | -0.59 |
| ELAPOR1 | 1 | 0.37 | 0.45 | 0.67 | -0.01 |
| LOC392347 (retired record) | 1 | -0.1 | -0.03 | 0.02 | -0.28 |
| LOC158813 (retired record) | 1 | -1.46 | -1.26 | -1.78 | -1.35 |

5 consecutive reagents from above:
| gene symbol | reagent no. | mean z-score | z-score, replicate A | z-score, replicate B | z-score, replicate C |
| --- | --- | --- | --- | --- | --- |
| CYB561A3 (cytochrome b561 family member A3) | 1 | 0.02 | 0.36 | -0.29 | 0 |
| NEURL1B (neuralized E3 ubiquitin protein ligase 1B) | 1 | 0.05 | -0.44 | 0.19 | 0.41 |
| KCNA3 (potassium voltage-gated channel subfamily A member 3) | 1 | 0.9 | 0.85 | 0.83 | 1.02 |
| RNASET2 (ribonuclease T2) | 1 | -0.62 | -0.69 | -0.65 | -0.51 |
| DONSON (DNA replication fork stabilization factor DONSON) | 1 | -1.89 | -1.5 | -2.21 | -1.96 |
